Pooled drug test results. Numbers come from NIAID ChemDB, via PubChem.

Common to all: tests in culture; species: Mycobacterium marinum

Blank or dashed fields: not listed here. A number after MIC or MFC names an inhibition level or a share of isolates. Lines come from different laboratories, so protocols vary.

{"SMILES": "CCOC(=O)c1c(-c2ccccc2)c2ccc(Cl)cc2oc1=O", "strain or isolate": "ATCC 927", "read by": "resazurin", "read-out": "MIC90", "value": ">100 µg/mL"}
{"SMILES": "O=[N+]([O-])c1ccc(COc2ccc(-c3n[nH]c(C(F)(F)F)c3-c3ccccc3)c(O)c2)cc1", "read by": "visual reading", "read-out": "MIC", "value": ">50 µg/mL"}
{"SMILES": "Cc1ccc(NC(=O)c2cc(Cl)ccc2OC(=O)[C@@H](Cc2cc3ccccc3[nH]2)NC(=O)OCc2ccccc2)cc1", "strain or isolate": "CAMP 5644", "read by": "broth dilution", "read-out": "MIC100", "value": "110 µM"}
{"SMILES": "Oc1cc(OCc2ccccc2)ccc1-c1n[nH]c(C(F)(F)F)c1-c1ccc(Br)cc1", "read by": "visual reading", "read-out": "MIC", "value": "12.5 µg/mL"}
{"SMILES": "CCCCCCCCCCCCCCCCNC(=O)NC(CCC(=O)O)(CCC(=O)O)CCC(=O)O", "strain or isolate": "ATCC 927", "read-out": "MIC", "value": "216 µg/mL"}
{"SMILES": "Cc1c(C)c(C)[c-](C)c1C.N[C@@H](Cc1ccccc1)C(=O)[O-].[Cl][Ir+2]", "strain or isolate": "ATCC 927", "read-out": "MIC", "value": ">250 µg/mL"}
{"SMILES": "COc1ccc(NC(=O)c2cc(Cl)ccc2OC(=O)[C@@H](NC(=O)OCc2ccccc2)C(C)C)cc1", "strain or isolate": "CAMP 5644", "read by": "broth dilution", "read-out": "MIC100", "value": "251 µM"}
{"SMILES": "C=C1C(=O)[C@@]23C(=O)O[C@H]4CCC(C)(C)[C@H]5C(=O)OC[C@@]45[C@@H]2CC[C@@H]1[C@H]3OC(=O)C1CCCC1", "strain or isolate": "ATCC 927", "read by": "resazurin", "read-out": "MIC", "value": "4 µg/mL"}
{"SMILES": "CC(C)CCC[C@@H](C)[C@H]1CC[C@H]2[C@@H]3CC[C@H]4C[C@H](NC(=O)NC(CCC(=O)O)(CCC(=O)O)CCC(=O)O)CC[C@]4(C)[C@H]3CC[C@]12C", "strain or isolate": "ATCC 927", "read-out": "MIC", "value": "69 µg/mL"}
{"SMILES": "C=C1C(=O)[C@@]23C(=O)O[C@H]4CCC(C)(C)[C@H]5C(=O)OC[C@@]45[C@@H]2CC[C@@H]1[C@H]3OC(=O)c1cnccn1", "strain or isolate": "ATCC 927", "read by": "resazurin", "read-out": "MIC", "value": ">64 µg/mL"}
{"SMILES": "CCCCCCCCCC(CCCCCCCCC)NC(=O)NC(CCC(=O)O)(CCC(=O)O)CCC(=O)O", "strain or isolate": "ATCC 927", "read-out": "MIC", "value": "18 µg/mL"}
{"SMILES": "NNC(=O)COc1ccc(-c2n[nH]c(C(F)(F)F)c2-c2ccc(Br)cc2)c(O)c1", "read by": "visual reading", "read-out": "MIC", "value": ">50 µg/mL"}
{"SMILES": "CCCCCCCCCCCCCCNC(=O)NC(CCC(=O)O)(CCC(=O)O)CCC(=O)O", "strain or isolate": "ATCC 927", "read-out": "MIC", "value": "216 µg/mL"}
{"SMILES": "C=C1C(=O)[C@@]23C(=O)O[C@H]4CCC(C)(C)[C@H]5C(=O)OC[C@@]45[C@@H]2CC[C@@H]1[C@H]3OC(=O)c1ccc(F)cc1", "strain or isolate": "ATCC 927", "read by": "resazurin", "read-out": "MIC", "value": "8 µg/mL"}
{"SMILES": "CCCCCCCC(CCCCCCC)NC(=O)NC(CCC(=O)O)(CCC(=O)O)CCC(=O)O", "strain or isolate": "ATCC 927", "read-out": "MIC", "value": "144 µg/mL"}
{"SMILES": "Cc1c(OCC(F)(F)F)ccnc1CSc1nc2ccccc2[nH]1", "strain or isolate": "M", "read by": "resazurin", "read-out": "MIC90", "value": "100 µM"}
{"SMILES": "COc1ccc(-c2n[nH]c(C(F)(F)F)c2-c2ccccc2)c(O)c1", "read by": "visual reading", "read-out": "MIC", "value": ">50 µg/mL"}
{"SMILES": "CCCCCCCN(CCCCCCC)C(=O)NC(CCC(=O)O)(CCC(=O)O)CCC(=O)O", "strain or isolate": "ATCC 927", "read-out": "MIC", "value": "54 µg/mL"}

The last 2 rows once more:

| SMILES | strain or isolate | read by | read-out | value |
|---|---|---|---|---|
| COc1ccc(-c2n[nH]c(C(F)(F)F)c2-c2ccccc2)c(O)c1 | - | visual reading | MIC | >50 µg/mL |
| CCCCCCCN(CCCCCCC)C(=O)NC(CCC(=O)O)(CCC(=O)O)CCC(=O)O | ATCC 927 | - | MIC | 54 µg/mL |